Measured values from several laboratories, pooled; numbers as filed in NIAID ChemDB.

Common to all: tests in culture; organism: Candida albicans; endpoint: Mean MIC

Neighbouring rows are from separate reports.

| SMILES | strain | value |
|---|---|---|
| Cc1ccc(-c2cn(-c3ccc(Cl)cc3)c(C)c2C(=O)O)cc1 | 40 strains | 36.5 µg/mL |
| Clc1ccc(COc2ccc(C(c3ccc(-c4ccccc4)cc3)n3ccnc3)cc2)cc1.O=[N+]([O-])O | 16 strains | ≥256 µg/mL |
| O=C(Nc1ccccc1Cn1ccnc1)c1cccc([N+](=O)[O-])c1 | 27 strains | 87.52 µg/mL |
| Cc1c(CN2CCCC2)cc(-c2ccc(Cl)cc2)n1-c1ccccc1 | 20 strains | 61.7 µg/mL |
| Cc1ccc(-n2cc(-c3ccc(F)cc3)c(C(=O)O)c2C)cc1 | 40 strains | 11.91 µg/mL |
| Cc1c(CN2CCN(C)CC2)cc(-c2ccc(Cl)cc2)n1-c1ccc(Cl)cc1Cl | 20 strains | 50.1 µg/mL |
| O=C(Nc1ccc(Cn2ccnc2)cc1)c1ccc([N+](=O)[O-])cc1[N+](=O)[O-] | 27 strains | 125 µg/mL |
| Cc1cc(CN2CCN(C)CC2)c(C)n1-c1ccc(Cl)cc1 | 20 strains | 200 µg/mL |
| Clc1ccccc1COc1ccc(C(c2cccc3ccccc23)n2ccnc2)cc1.O=[N+]([O-])O | 17 strains | ≥256 µg/mL |
| O=C(Nc1ccc(Cn2ccnc2)cc1)c1ccccc1 | 27 strains | 109 µg/mL |
| Cc1cc(CN2CCN(C)CC2)c(C)n1-c1ccccc1 | 20 strains | >200 µg/mL |
| O=C(Nc1ccccc1Cn1ccnc1)c1ccc(Cl)cc1 | 27 strains | 150 µg/mL |
| Cc1ccc(-c2ccccc2)n1-c1ccc([N+](=O)[O-])cc1 | 20 strains | >200 µg/mL |
| Cc1c(C(=O)O)c(-c2ccc(F)cc2)cn1-c1ccc(Cl)cc1 | 40 strains | 26.04 µg/mL |
| Cc1c(CN2CCN(C)CC2)cc(-c2ccccc2)n1-c1ccc(F)cc1 | 20 strains | 168 µg/mL |
| Clc1cccc(Cl)c1COc1ccc(C(c2ccc3ccccc3c2)n2ccnc2)cc1.O=[N+]([O-])O | 16 strains | ≥256 µg/mL |
| O=C(Nc1ccccc1Cn1ccnc1)c1ccccc1Cl | 27 strains | 50 µg/mL |
| Clc1cccc(Cl)c1COc1ccc(C(c2cccc3ccccc23)n2ccnc2)cc1.O=[N+]([O-])O | 17 strains | ≥256 µg/mL |
| Cc1c(C(=O)O)c(-c2ccc(Br)cc2)cn1-c1ccc(F)cc1 | 40 strains | 78.57 µg/mL |
| Fc1ccc(COc2ccc(C(c3nccc4ccccc34)n3ccnc3)cc2)c(F)c1 | 17 strains | ≥256 µg/mL |
| O=C(Nc1ccccc1Cn1ccnc1)c1cc([N+](=O)[O-])cc([N+](=O)[O-])c1 | 27 strains | 11.23 µg/mL |

The first 2 rows once more:

{"SMILES": "Cc1ccc(-c2cn(-c3ccc(Cl)cc3)c(C)c2C(=O)O)cc1", "strain": "40 strains", "value": "36.5 µg/mL"}
{"SMILES": "Clc1ccc(COc2ccc(C(c3ccc(-c4ccccc4)cc3)n3ccnc3)cc2)cc1.O=[N+]([O-])O", "strain": "16 strains", "value": "≥256 µg/mL"}